Primary screen of a compound library

Source: ChEMBL document CHEMBL3988442, “University of Dundee, Small-Polar-MMV Screening Library” (2021).

Mtb cholesterol medium: 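Growth of Mycobacterium tuberculosis over 4 days (cholesterol / DPPC medium with tyloxapol); the read-out is not stated. Concentration: 50 µM. Higher reads as more growth inhibition (inferred: compounds with an IC50 in retests scored well above the rest). Of about 69,000 compounds tested this way, about 370 (0.54%) reached 50% or more in at least one test.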
Mtb glucose medium: 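Whole-cell growth test on Mycobacterium tuberculosis, read after 3 days in glucose-containing 7H9 medium; the read-out is not stated. Compounds at 50 µM. Higher reads as more growth inhibition (inferred: compounds with an IC50 in retests scored well above the rest). About 69,000 compounds were tested under these conditions; 1.1% (about 760) showed 50% or more at least once.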

The filed quantity is “Percent Effect” (%). The record does not define 0% and 100%; most values in the screen are far below 50% and negative numbers occur (in some assays of this library far below -100). Many other results are left out here, so strong results are more common than in the screen. Two or more numbers in one place are separate tests of the same structure; such repeats can differ widely. A dash means the value is not listed here; it may have been measured.

| structure | Mtb cholesterol medium | Mtb glucose medium |
|---|---|---|
| `Cc1nc(C2CCCN2Cc2cc(Cl)c3c(c2)OCCO3)no1` (configuration not stated) | 57.08 | 55.44 |
| `Oc1ccccc1CN1CCCCCC1c1cccs1` (configuration not stated) | - | 4.686 |
| `CC(Cn1cccn1)NCc1nc(-c2cccc(Cl)c2)no1` (configuration not stated) | 22.16 | 32.43 |
| `CNC(=O)[C@@H](C)NC(=O)c1cc(-c2ccc(F)cc2)c(C)s1` | -5.599 | 8.572 |
| `Cc1nc(CN2C(=O)CCC23CCN(c2ncccn2)CC3)cs1.O=C(O)C(F)(F)F` | - | 14.93 |
| `O=C(Nc1cccnc1N1CCSCC1)c1cc2c(s1)CCCCC2` | 1.704 | -11.48 |
| `CN(C)c1nc2c(c(N3CCc4c(c(CO)nn4C)C3)n1)CCNC2` | -62.01 | -52.64 |
| `CS(=O)(=O)N1CCc2[nH]cnc2C12CCN(C(=O)c1ccc[nH]1)CC2` | 19.23 & 0.7519 | - |
| `COCC(=O)Nc1nnc2n(Cc3cccc(OC)c3)[nH]c(C)c1-2` | - | -1.489 & 4.843 |
| `Cc1nn(-c2ccccc2)nc1C(=O)NCC(c1ccco1)N(C)C` (configuration not stated) | -17.33 | -12.97 |
| `Cc1cc(C(=O)NCc2ccco2)nn1C` | -10.13 | - |
| `O=C(c1cccs1)N1CCC2(CC1)CN(c1cncnc1)C(=O)CO2` | 4.023 & -13.22 | - |
| `[H][C@]12CC[C@]([H])(CN(Cc3cc(-c4ccccc4)no3)C1)N(CC1CCC1)C2` | 78.17 & 72.26 | 85.07 |
| `c1cnnc(N2CCCC2CNc2nc3ccccc3o2)c1` (configuration not stated) | -11.61 | 5.21 |
| `O=C(CCC(=O)N1CCOCC1c1ccccc1)c1cccs1` (configuration not stated) | - | 7.837 & 12.98 |
| `CCc1cnc(N2CCC3(CCN(Cc4cccc(C)c4)C3=O)C2)nc1` (configuration not stated) | - | 10.97 |
| `CCNc1ccnc(N2Cc3cnc(CC(C)C)nc3C2)n1` | - | 23.02 |
| `Cn1cc(NC(=O)c2ccccn2)cc(Cl)c1=O` | -8.821 | - |
| `COc1cc(C)sc1C(=O)N1CCC(Nc2cccnc2)CC1` | - | 70.87 |
| `N#Cc1cccc(CN2C(=O)C3(CCNCC3)Nc3ccccc32)c1` | - | 27.08 |
| `COC(=O)c1ccc(-c2noc(CN(CCO)Cc3cccs3)n2)cc1` | - | 75.78 |
| `Nc1cccnc1N1CCC(O)CC1` | -7.457 | -4.086 & -2.819 |
| `Cc1cc(NCCN)nc(-c2ccccc2O)n1` | - | 102.1 & 35.74 |
| `Br.O=C(CN(C1=NCCCC1)c1ccccc1)c1ccc(OC(F)F)cc1` | 56.27 | 64.71 |
| `O=C1NC2(CCCN(C(=O)CCn3cccn3)C2)Oc2ccccc21` (configuration not stated) | 61.98 & 6.591 | - |
| `O=C(NCCC1=CCCCC1)c1ccc(-n2cccc2)nc1` | -12.03 | -17.68 |
| `CCOc1cccc(CCNC(=O)Cc2ccccc2O)n1` | - | -1.434 |
| `O=C(NCC(=O)N1CCc2ccccc2C1)c1cnccn1` | - | -1.805 & 75.85 |
| `CN1CCN(C(=O)c2csnn2)c2ccccc21` | - | -5.991 & -3.991 |
| `Cc1cnn(CC2CN(CCS(=O)(=O)C(F)(F)F)CCO2)c1` (configuration not stated) | - | -42.14 |
| `Cc1cc(CS(=O)(=O)NC2CCCCC2)on1` | -8.007 | - |
| `CC(=O)NCc1noc2c1CN(Cc1cnn(C)c1)CC2` | - | 0.3226 & -5.495 |
| `COCc1nc(N(C)C)ncc1C(=O)Nc1cc(C)cc(C)c1` | - | 54.52 |
| `O=C(NCCOc1ncc(Cl)cc1Cl)c1ccncc1` | 0.99 & -6.85 | 0.8383 |
| `COc1ccc(CNC(Cc2cccs2)c2nc(C)c(C)s2)cc1OC.Cl` (configuration not stated) | - | 13.95 |
| `CCS(=O)(=O)N1CCCCC1c1nc(C)no1` (configuration not stated) | - | 9.511 |
| `Cc1csc(C2CCCN(C(=O)c3cc(Cl)c[nH]3)C2)n1` (configuration not stated) | 2.913 | 32.11 |
| `Cc1cccnc1CN(C)C(C(=O)O)c1ccc(C(C)(C)C#N)cc1` (configuration not stated) | - | 39.86 |
| `O=C(NCc1ccc2c(c1)OCO2)N1CCCC2(C1)OCCO2` | 0.7539 | 2.404 & -19.46 |
| `NCC1CN(c2nc(-c3ccccc3)nc3c2CCNCC3)CCO1` (configuration not stated) | -13.29 | 52.9 |
| `Cc1cc(Cc2ccccc2C)cc(C2CCCNC2)n1` (configuration not stated) | - | 9.32 |
| `CCN(Cc1ccc(Cl)c(Cl)c1)C(=O)CCn1cncn1` | 26.36 | 0.8887 & -1.542 |
| `O=C(NCCN1CCOCC1)c1cc2c(s1)CCN2Cc1cccnc1` | -19.28 | - |
| `CS(=O)(=O)NC[C@H]1Cn2c(-c3ccc(Cl)cc3)cnc2CO1` | - | -12.11 & 52.47 |
| `OC(CN1CCN(c2ncccn2)CC1)c1cccc(F)c1` (configuration not stated) | - | 24.27 |
| `COc1cc(Oc2ccc(C(N)=O)cn2)ccc1CN1CCCC1` | -7.559 | -17.84 |
| `COCCn1ccc(NC(=O)Nc2cccc(C#N)c2)n1` | - | 6.651 |
| `CC(C)c1ccc(NC(=O)c2ncc(C(N)=O)cc2Cl)cc1` | - | 3.901 |
| `COC(=O)c1ccc(C(=O)NCC2(O)CCOCC2)cc1` | - | -8.625 |
| `CC(=O)N1CCC(n2ccc(-c3cnc(N4CCOCC4)nc3)n2)CC1` | - | 2.475 |
| `Cc1cc2n(n1)CCN(c1nc(N(C)C)nc3c1CCNC3)C2` | 9.655 | -7.923 & 15.42 |
| `O=C(NCc1ccco1)Nc1cccc(S(=O)(=O)C(F)F)c1` | 2.751 | 2.705 |
| `COc1cc(NCc2c(C)noc2C)c(OC)cc1Cl` | -18.75 | 12 |
| `Clc1cccc(Cl)c1CNCCOc1ccccn1` | - | 1.622 & 14 |
| `Cc1nc[nH]c1-c1nccn1-c1ccc(C(N)=O)c(N2CCCC2)c1` | -17.39 | - |
| `Cc1cc(CN2CCCC2c2noc(C3CC3)n2)c2ccccc2n1` (configuration not stated) | - | 13.51 |
| `CN1CCC(N2Cc3nc(N)ncc3C2=O)CC1` | -8.138 | 37.74 |
| `c1ccc(-c2nc(SCc3nnc(C4CC4)o3)n[nH]2)nc1` | - | -41.53 & 6.052 |
| `CCCc1nnsc1C(=O)NCC1CCN(c2ncccn2)CC1` | - | 3.351 |
| `O=S(=O)(NCCNc1cc(-n2cccn2)ncn1)c1cccs1` | -8.444 | -16.24 & 5.048 |
| `NC(=O)N1CCC2(CC1)CN(c1ccsc1)C(=O)CO2` | -25.67 | - |
| `CN1CCN(CC(CC(=O)Nc2ccc(Cl)cc2)C(=O)O)CC1` (configuration not stated) | - | 24 & 5.636 |
| `CN(CC1(C)COC1)C(=O)c1cc(-c2cnn(C)c2)nc2ccccc12` | 18.49 & 74.68 | - |
| `Cc1ccc(CNc2cc3[nH]c(O)nc3cc2C)cc1` | - | 19.23 & 24.23 |
| `c1ccc(CCN2CCN(c3ccc4nncn4n3)CC2)nc1` | - | -2.416 |
| `Cc1ccn(-c2ccc(NCc3ccccc3F)nn2)n1` | 2.767 & 69.47 | - |
| `Cc1cc(=O)[nH]c(SC(C)C(=O)N2CCC(NS(C)(=O)=O)CC2)n1` (configuration not stated) | - | 70.28 |
| `CC(=O)NCc1ccc(C(=O)NC2CCc3nc(C)cn3C2)o1` (configuration not stated) | 52.48 | - |

Some entries from above, unchanged:

| structure | Mtb cholesterol medium | Mtb glucose medium |
|---|---|---|
| `O=S(=O)(NCCNc1cc(-n2cccn2)ncn1)c1cccs1` | -8.444 | -16.24 & 5.048 |
| `O=C(NCc1ccco1)Nc1cccc(S(=O)(=O)C(F)F)c1` | 2.751 | 2.705 |
| `Cc1csc(C2CCCN(C(=O)c3cc(Cl)c[nH]3)C2)n1` (configuration not stated) | 2.913 | 32.11 |
| `Cc1cc(Cc2ccccc2C)cc(C2CCCNC2)n1` (configuration not stated) | - | 9.32 |
| `O=C(NCCOc1ncc(Cl)cc1Cl)c1ccncc1` | 0.99 & -6.85 | 0.8383 |
| `CN(CC1(C)COC1)C(=O)c1cc(-c2cnn(C)c2)nc2ccccc12` | 18.49 & 74.68 | - |
| `COc1cc(NCc2c(C)noc2C)c(OC)cc1Cl` | -18.75 | 12 |
| `COc1ccc(CNC(Cc2cccs2)c2nc(C)c(C)s2)cc1OC.Cl` (configuration not stated) | - | 13.95 |
| `CS(=O)(=O)N1CCc2[nH]cnc2C12CCN(C(=O)c1ccc[nH]1)CC2` | 19.23 & 0.7519 | - |